According to PMC3931707, “Distinct Structural Features of the Peroxide Response Regulator from Group A Streptococcus Drive DNA Binding”:
For at least one entry, the source does not settle the construct or the ends of the probe. Protein sequences can lack the tags named with them.

Biological target: T1, PerR WT (Streptococcus pyogenes (GAS) serotype M1 A20) (UniProt Q9A1M6)
T1 sequence (looked up, limits assumed): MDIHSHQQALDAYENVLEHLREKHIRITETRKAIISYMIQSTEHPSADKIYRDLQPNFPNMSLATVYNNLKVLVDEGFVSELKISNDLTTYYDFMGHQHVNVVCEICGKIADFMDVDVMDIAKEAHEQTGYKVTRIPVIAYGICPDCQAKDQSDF
Test: EMSA
Settings: EMSA: 20 mM Tris pH 8.0, 50 mM KCl, 5% glycerol, 50 ug/ml BSA, 15 min at 25 C; 6% native PAGE in Tris-borate, ethidium bromide; recombinant protein; protein details: C-terminal 6xHis (pET-21b NdeI/XhoI); probe letters rebuilt from the primers and the genome

Sequence: GGGGTACCCGAGTGTGTTTGTCATAATAACATCTCCTTACTTTTCAGCTTAAAGGGCAAGAATGGAGAGGGAACTAACCCTAACGTGATAAACATAAGAAAGGGTTAAGGACCTAATCCTATTCGACAATAACGGAATAATCCTAATTGGATGATTAGACACTTAATTAGAATCATTATCGTTTTATATCTATATTCTACAATGATTAAGGAAAGATTGCAAGTATTTGATTTCTTTTCGAATAAATAAGTATGATAGCTTTTTTTAGTATATGTTCGGGCATCTTATTGACCCATCTTTTTTACTGTTTACTACTTTATTTTCCTGATAATGGTCAAGAGCAGCTAAGTAAACAGACTGTCATTGTTTGTGACCAACTAACTTTTGCCAAACGCGTTTTTCGGCAGTTCCAAAACCATTTTATAACGAGCTCCGG (double strand) [dpr promoter (-403 to +16)]
- binding result: binds
